One test concerns the target hKCa3.1 (human) (UniProt O15554). Briefly: cell-based or functional assay.
Another test deals with hKv1.4 (human) (UniProt P22459). Briefly: cell-based or functional assay.
Another test concerns the target hKv1.6 (human) (UniProt P17658). Briefly: cell-based or functional assay.
The next test deals with hKv1.7 (human) (UniProt Q96RP8). Briefly: cell-based or functional assay.
In a further test the target is human Kv1.1 (human) (UniProt Q09470). Briefly: cell-based or functional assay.
The target of another test is human Kv1.2 (human) (UniProt P16389). Briefly: cell-based or functional assay.
The target of test [1] is human Kv1.3 (human) (UniProt P22001). Briefly: cell-based or functional assay.
Test [2] shares this target. Briefly: competitive binding (Agitoxin-2-Cys-TAMRA), FACS, hKv1.3/HEK.

Data on 1 substance can be found in patent publication US20190062383A1, “Kv1.3 Antagonists and Methods of Use” (published 2019).

Usually IC50 stands for the concentration that inhibits the measured activity by half. A higher IC50 goes with weaker potency.

Some results are limits rather than exact numbers.

“synthetic peptide p261 (peptide; modification not given)”: in the test with hKCa3.1 (human), the IC50, patch clamp, KCa3.1/CHO is over 100 nM and the IC50, patch clamp, hKCa3.1/CHO was over 100 nM. For the same substance, in the test with hKv1.4 (human), the IC50, patch clamp, hKv1.4/CHO is over 300 nM. In the test with hKv1.6 (human), this substance displayed an IC50, patch clamp, hKv1.6/CHO of 0.32 nM. The IC50, patch clamp, hKv1.7/CHO with hKv1.7 (human) was over 100 nM. In the test with human Kv1.1 (human), this substance had an IC50, patch clamp, hKv1.1/CHO of 3.3 nM. This substance showed an IC50, patch clamp, hKv1.2/CHO in the test with human Kv1.2 (human) of 68 nM. For the same substance, in the test with human Kv1.3 (human) [1], the IC50, T cell inhibition, primary human CD4+ T cell was determined as 0.02 nM; the IC50, patch clamp, Kv1.3/human CD4+ T-cell stood at 0.016 nM; the IC50, patch clamp, hKv1.3/CHO stood at 0.02 nM; the IC50, patch clamp, hKv1.3/CHO, in 5% FCS was 0.013 nM. In the test with human Kv1.3 (human) [1], the IC50, patch clamp, primary human CD4+ T cell was 0.016 nM and the IL-2 inhibition IC50, human CD4+ T-cell was 0.02 nM. In the test with human Kv1.3 (human) [2], this substance had an IC50 of 1.53 nM.
